Results of unrelated studies side by side (data: NIAID ChemDB).

Shared fields: whole-cell or culture tests

Fold resistance has wild type as its base.

structure,agent,cell line,endpoint,mutations,tested at,strain,method,result
O=C(NCc1ccc(Cl)cc1)c1c[nH]c2c(F)cc(CCCO)cc2c1=O,Rat cytomegalovirus,-,EC50,-,-,ATCC,plaque count,2.5 µM
O=C(O)c1cc2c(s1)-c1ccccc1N(C(=O)c1ccc(NC(=O)c3ccccc3-c3ccccc3)cc1)CC2,Respiratory syncytial virus,HeLa,EC50,-,-,LONG,plaque count,>25 µM
CN1CCN(C(=O)c2ccc3nc4ccccc4c(Oc4ccccc4)c3c2)CC1,West Nile virus,BHK,EC50,-,-,-,replicon,28 µM
CCCCCCCCCCCCCCCCCCCCCCO,Respiratory syncytial virus,VERO,inhibition,-,5 µg/mL,-,syncytia,78%
CCCCOc1ccc(-c2snc(SC)c2C#N)cc1,Coxsackie virus,HEP-2,EC50,-,-,TYPE B1,plaque count,10 µM
O=c1[nH]c(=O)n([C@@H]2O[C@H](CO)[C@@H](O)[C@@H]2O)cc1/C=C/Br,Varicella zoster virus,HELF,inhibition,-,0.0001 µg/mL,OKA,plaque count,0%
O=C(Nc1cccc(C2=NCCN2)c1)Nc1cccc(C(F)(F)F)c1,Escherichia coli,-,MIC,-,-,ES142,-,150 µM
CCCc1cc(=O)oc2cc(OC(=O)C(C)(C)C)c3c(c12)OC(C)(C)C=C3,Measles virus,CV-1,EC50,-,-,CC,cytopathic effect,2 µg/mL
Cc1cnnc(CCCOc2cc(C)c(-c3noc(C)n3)c(C)c2)c1,Enterovirus,HeLa,EC50,-,-,-,cytopathic effect,0.033–0.659 µg/mL
CCCCCCCCCCCCCCCCCCCCCCOCC(C)(COCCCCCCCCCCCCCCCCCCCCCC)CO[C@]1(C(=O)O)C[C@H](OS(=O)(=O)O)[C@@H](NC(C)=O)[C@H]([C@H](OS(=O)(=O)O)[C@@H](COS(=O)(=O)O)OS(=O)(=O)O)O1,Rotavirus,MA-104,EC50,-,-,Hosokawa (serotype 4),plaque count,1.7 µg/mL
CC(N)CC(C(=O)Nc1cc(C(F)(F)F)cc(C(F)(F)F)c1)C(=O)Nc1cc(C(F)(F)F)cc(C(F)(F)F)c1,Klebsiella pneumoniae,-,MIC,-,-,KL21,-,>300 µM
CCCc1cc(=O)oc2c3c(c4c(c12)OC(C)(C)[C@H](O)[C@@H]4O)O[C@H](C)[C@@H](C)[C@@H]3O,Measles virus,CV-1,EC50,-,-,Chicago-1,virus yield,<0.3 µg/mL
CCCc1ccc(CCCOc2ccc(-c3ccccc3)c(Br)c2)nn1,Enterovirus,HeLa,EC50,-,-,-,cytopathic effect,0.033–0.659 µg/mL
CSc1nsc(C2CCCCC2)c1C#N,Adenovirus,HEP-2,EC50,-,-,TYPE 2,plaque count,>50 µM
CCN(CC)C(=O)c1ccc2nc3ccccc3c(NC3CCN(Cc4ccccc4)CC3)c2c1,West Nile virus,BHK,EC50,-,-,-,replicon,12.5 µM
CCCc1cc(=O)oc2cc(OS(=O)(=O)c3ccc(C)cc3)cc(OS(=O)(=O)c3ccc(C)cc3)c12,Measles virus,CV-1,EC50,-,-,BIL,cytopathic effect,0.4 µg/mL
CN1CCN(C(=O)c2ccc3nc4ccccc4c(NCCc4c[nH]c5ccccc45)c3c2)CC1,West Nile virus,BHK,EC50,-,-,-,replicon,13.7 µM
N#Cc1c(-c2ccccc2)s[nH]c1=S,Encephalomyocarditis virus,L929,EC50,-,-,Encephalomyocarditis virus,plaque count,>60 µM
CCN(CC)CCN1C(=O)c2ccccc2NC1c1ccc(Br)cc1,Plasmodium berghei,-,EC50,-,-,ANKA,luciferase,0.46 µM
CN(NC(=O)Nc1ccc(C(F)(F)F)cc1)C(=O)Nc1cc(C(F)(F)F)cc(C(F)(F)F)c1,Escherichia coli,-,MIC,-,-,ES142,-,>300 µM
CC(N)C12CC3CC(CC(C3)C1)C2,Influenza A virus,MDCK,EC50,-,-,H3N2 A/NY/83/R6,ELISA,27.5 µg/mL
CC1CCC(C(=O)N(c2cc(C#CC(C)(C)C)sc2C(=O)O)C2CCC(O)CC2)CC1,Hepatitis C virus,Huh7,fold resistance,M423V,-,H77 (GT1a),luciferase,17.9
CC[C@H]1OC(=O)[C@H](C)C(=O)[C@H](C)[C@@H](O[C@@H]2O[C@H](C)C[C@H](N(C)C)[C@H]2O)[C@@]2(C)C[C@@H](C)C(=NC(C)=O)[C@H](C)[C@@H](OC/C(=N\Oc3ccc(-c4nnc(N)s4)cc3)CO2)[C@]1(C)O,Streptococcus pneumoniae,-,MIC,-,-,700906 (erythromycin-resistant-ERM),-,<0.06 µg/mL
CCc1cn([C@@H]2O[C@H](CO)[C@@H](O)[C@@H]2O)c(=O)[nH]c1=O,Varicella zoster virus,HELF,inhibition,-,1000 µg/mL,KANNO,plaque count,54%
CO[C@@H]1[C@H](O)[C@@H](CO)O[C@H]1n1cnc2c(=O)[nH][nH]c(=O)c21,West Nile virus,VERO E6,EC50,-,-,-,-,>70 µM
Cc1ccc(CCCOc2cc(C)c(-c3noc(C(F)F)n3)c(C)c2)nn1,Enterovirus,HeLa,EC50,-,-,-,cytopathic effect,0.033–0.659 µg/mL
CCCCN1C(=O)c2ccccc2NC1c1ccc(F)cc1,Plasmodium berghei,-,EC50,-,-,ANKA,luciferase,>20 µM
CCC(CC)O[C@@H]1C=C(C(=O)O)C[C@H](N)[C@H]1NC(C)=O,Influenza A virus,MDCK,EC50,-,-,Influenza A/Shandong/09/93 (H3N2),visual reading,0.04 µM
O=C(NC1CC1)c1cc2c(s1)-c1ccccc1N(C(=O)c1ccc(NC(=O)c3ccccc3-c3ccccc3)cc1)CC2,Respiratory syncytial virus,HeLa,EC50,-,-,LONG WILD TYPE,plaque count,0.2 µM
CC[C@H]1OC(=O)[C@H](C)C(=O)[C@H](C)[C@@H](O[C@@H]2O[C@H](C)C[C@H](N(C)C)[C@H]2O)[C@@]2(C)C[C@@H](C)C(=NC(C)=O)[C@H](C)C(OC/C(=N\OCc3ccccc3)CO2)[C@]1(C)O,Streptococcus pneumoniae,-,MIC,-,-,7701 (erythromycin-resistant-MEF),-,0.25 µg/mL
Cc1ccc(CCCOc2c(C)cc(-c3noc(C(F)F)n3)cc2C)nn1,Enterovirus,HeLa,EC50,-,-,-,cytopathic effect,0.033–0.659 µg/mL
CCCc1cc(=O)oc2cc(OS(=O)(=O)c3ccc(C)cc3)cc(O)c12,Measles virus,CV-1,EC50,-,-,SA,cytopathic effect,0.2 µg/mL
N#Cc1c(Cl)nsc1Cl,Encephalomyocarditis virus,L929,EC50,-,-,Encephalomyocarditis virus,plaque count,>4 µM
O=C(NCc1ccc(Cl)cc1)c1c[nH]c2c(F)cccc2c1=O,Rat cytomegalovirus,-,EC50,-,-,ATCC,plaque count,8.5 µM
Nc1nc2c(ncn2CC(CO)CCO)c(=O)[nH]1,Simian varicella-zoster virus,MA-104,EC50,-,-,-,plaque count,83 µM
O=C(Nc1cc(C(F)(F)F)cc(C(F)(F)F)c1)NS(=O)(=O)c1ccc(OC(F)(F)F)cc1,Escherichia coli,-,MIC,-,-,ES142,-,>200 µM
CCNC/C=C\CNC/C=C\CNCCCCNCCCCNCC,Encephalitozoon cuniculi,-,EC50,-,-,-,-,>1000 µM
CCCCCOc1ccc(-c2cc(-c3ccc(C(=O)N[C@H]4C[C@@H](O)[C@@H](O)NC(=O)[C@@H]5[C@@H](O)[C@@H](C)CN5C(=O)[C@H]([C@H](O)CC(N)=O)NC(=O)[C@H]([C@H](O)[C@@H](O)c5ccc(O)c(OS(=O)(=O)O)c5)NC(=O)[C@@H]5C[C@@H](O)CN5C(=O)[C@H]([C@@H](C)O)NC4=O)cc3)no2)cc1,Candida guilliermondii,-,MIC50,-,-,-,broth dilution,0.25 µg/mL
O=C1CCC(N2C(=O)c3ccccc3C2=O)C(=O)N1,Encephalitozoon intestinalis,MRC-5,EC50,-,-,-,-,>1 µg/mL
O=c1[nH]c(=O)n([C@H]2C[C@H](O)[C@@H](CO)O2)cc1/C=C/Br,Varicella zoster virus,HELF,inhibition,-,0.01 µg/mL,KANNO,plaque count,70%
C=Cc1cn(CC(CO)CO)c(=O)[nH]c1=O,Duck hepatitis B virus,-,EC50,-,-,-,-,1–3 µg/mL
COCc1ccc(CCCOc2c(C)cc(-c3noc(C(F)F)n3)cc2C)nn1,Enterovirus,HeLa,EC50,-,-,-,cytopathic effect,0.033–0.659 µg/mL
CCNC/C=C\CNCCCCNCCCCNC/C=C\CNCC,Encephalitozoon cuniculi,-,EC50,-,-,-,-,>1000 µM
CC[C@H]1OC(=O)[C@H](C)C(=O)[C@H](C)[C@@H](O[C@@H]2O[C@H](C)C[C@H](N(C)C)[C@H]2O)[C@@]2(C)C[C@@H](C)C(=NC(C)=O)[C@H](C)[C@@H](OC/C(=N\Oc3ccc(-c4nccs4)nc3)CO2)[C@]1(C)O,Streptococcus pneumoniae,-,MIC,-,-,700906 (erythromycin-resistant-ERM),-,<0.06 µg/mL
C[C@@H](c1ncncc1F)[C@](O)(Cn1cncn1)c1ccc(F)cc1F,Candida guilliermondii,-,MIC50,-,-,-,broth dilution,0.03 µg/mL
CC(=O)N[C@H]1C[C@@H](n2cnc3c(N)ncnc32)[C@H](O)[C@@H]1O,West Nile virus,HFF,EC50,-,-,-,-,>100 µg/mL
O=c1[nH]c(=O)n([C@H]2C[C@H](O)[C@@H](CO)O2)cc1I,Varicella zoster virus,HELF,inhibition,-,1 µg/mL,Asahikawa,plaque count,67%
CN(C)c1cccc2c(S(=O)(=O)Nc3ccc(NC(=O)C(C)(C)CO)cc3)cccc12,Guinea pig cytomegalovirus,GPL,EC50,-,-,ATCC VR682,plaque count,0.5 µM
CSc1nsc(-c2cc[n+](C)cc2)c1C#N,Adenovirus,HEP-2,EC50,-,-,TYPE 2,plaque count,>1000 µM
CO/N=C1\CN(c2nc3c(cc2F)c(=O)c(C(=O)O)cn3C2CC2)CC1CN,Streptococcus pneumoniae,-,MIC50,-,-,19 isolates (penicillin-resistant),-,0.016 µg/mL
CCNCCCCNCCCCNCCCCNCCCCNCCCCNC/C=C/CNCCCCNCCCCNCCCCNCCCCNCCCCNCC,Encephalitozoon cuniculi,-,EC50,-,-,-,-,0.4 µM
Cc1cc(OCCCc2ccc(C(F)(F)F)nn2)cc(C)c1-c1noc(C(F)F)n1,Enterovirus,HeLa,EC50,-,-,-,cytopathic effect,0.033–0.659 µg/mL
CCNCCCCNC[C@H]1C[C@@H]1CNCCCCNCC,Encephalitozoon cuniculi,-,EC50,-,-,-,-,270 µM
CCc1ccc(CCCOc2ccc(-c3noc(C(F)(F)F)n3)c(C)c2)nn1,Enterovirus,HeLa,EC50,-,-,-,cytopathic effect,0.033–0.659 µg/mL
Nc1nc(=O)n([C@@H]2O[C@H](CO)[C@@H](O)[C@@H]2F)cc1I,Varicella zoster virus,HELF,inhibition,-,0.001 µg/mL,YS,plaque count,0%

The last 4 rows once more:

{"structure": "Cc1cc(OCCCc2ccc(C(F)(F)F)nn2)cc(C)c1-c1noc(C(F)F)n1", "agent": "Enterovirus", "cell line": "HeLa", "endpoint": "EC50", "method": "cytopathic effect", "result": "0.033–0.659 µg/mL"}
{"structure": "CCNCCCCNC[C@H]1C[C@@H]1CNCCCCNCC", "agent": "Encephalitozoon cuniculi", "endpoint": "EC50", "result": "270 µM"}
{"structure": "CCc1ccc(CCCOc2ccc(-c3noc(C(F)(F)F)n3)c(C)c2)nn1", "agent": "Enterovirus", "cell line": "HeLa", "endpoint": "EC50", "method": "cytopathic effect", "result": "0.033–0.659 µg/mL"}
{"structure": "Nc1nc(=O)n([C@@H]2O[C@H](CO)[C@@H](O)[C@@H]2F)cc1I", "agent": "Varicella zoster virus", "cell line": "HELF", "endpoint": "inhibition", "tested at": "0.001 µg/mL", "strain": "YS", "method": "plaque count", "result": "0%"}

MIC50, MIC90 and the like: level of inhibition, or share of isolates inhibited. Inhibition is in % at the dose shown (toxicity tests: loss of growth or viability). ECn: concentration that inhibits the pathogen or its effect by n%. Blank or dashed fields: not listed here. a–b is a range or a potency band. Conditions beyond the fields shown may differ between rows.